By UniProt entry, the sequences of proteins in these tests, tags left out. Residues count along the entry.
UniProt P04925, 23-120: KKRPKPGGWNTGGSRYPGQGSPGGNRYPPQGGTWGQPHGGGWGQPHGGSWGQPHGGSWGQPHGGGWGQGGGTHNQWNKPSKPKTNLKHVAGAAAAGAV
UniProt P04925, 23-230: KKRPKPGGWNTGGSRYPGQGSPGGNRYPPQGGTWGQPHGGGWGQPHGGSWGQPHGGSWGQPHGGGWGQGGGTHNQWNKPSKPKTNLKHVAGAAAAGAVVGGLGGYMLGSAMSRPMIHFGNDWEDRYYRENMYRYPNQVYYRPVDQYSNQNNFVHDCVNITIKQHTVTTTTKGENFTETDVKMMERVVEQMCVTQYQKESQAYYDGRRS

According to paper PMC6181439:

Legend:
[1] = biological target: Recombinant mouse PrP flexible tail only (23-120) (mouse) (UniProt P04925); assay: SPR; conditions: bispecific antibody
[2] = biological target: Recombinant mouse PrP full length (23-230) (mouse) (UniProt P04925); assay: SPR; conditions: bispecific antibody

## scPOM-bi, POM1-POM2 bispecific single chain antibody
[1]
  Kd: 10.7 nM
  koff: 0.00013 s⁻¹
[2]
  Kd: 0.8 nM
  koff: 6.3e-05 s⁻¹
